# Data from patent US6689764B1, “Treatment of angiogenesis dependent conditions with dextrin sulphate” (priority 1999, dated 2004).
# Tested on: HIV-1
# Settings: after administration of several grams of the drug
substance,measurement,value
dextrin 2-sulphate,clinical or biochemical toxicity,No clinical or biochemical toxicity
